Results on three sequences are retold here after article PMC11229316, “Insights into the molecular mechanism of ParABS system in chromosome partition by HpParA and HpParB” (Nucleic Acids Research, 2024).

Data set [1] concerns the target T1, Ct-HpParB (Helicobacter pylori) (UniProt O25758).
T1 sequence (looked up, limits assumed): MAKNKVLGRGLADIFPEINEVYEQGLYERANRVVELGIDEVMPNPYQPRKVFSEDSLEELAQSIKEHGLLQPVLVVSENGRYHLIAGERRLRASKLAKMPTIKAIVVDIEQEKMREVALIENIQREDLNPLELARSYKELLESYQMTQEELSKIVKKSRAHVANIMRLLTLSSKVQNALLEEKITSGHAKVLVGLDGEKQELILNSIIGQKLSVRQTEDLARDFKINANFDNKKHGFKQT
Description: EMSA. As to conditions: 2 mM CTP, specific complex only with excess protein, EMSA: 20 mM Tris-HCl pH 8.0, 50 mM NaCl, 11 mM imidazole, 5 mM MgCl2, 10% glycerol, 37 C, gel at 4 C, recombinant protein, label: none (GelRed stain). Background: A gel shift assay detects complexes by their altered migration in electrophoresis.

The subject of data set [2] is HpParA (HpSoj) + HpParB (HpSpo0J). Description: EMSA. The note with it: 2 mM CTP, with Cy3-parS (N3), NAC1 not observed, HpParB-DNA complex and free DNA seen, EMSA: 20 mM Tris-HCl pH 8.0, 50 mM NaCl, 11 mM imidazole, 5 mM MgCl2, 10% glycerol, 37 C, gel at 4 C, recombinant protein.
The target of data set [3] is T2, HpParB (HpSpo0J) (Helicobacter pylori) (UniProt O25758).
T2 sequence (looked up, limits assumed): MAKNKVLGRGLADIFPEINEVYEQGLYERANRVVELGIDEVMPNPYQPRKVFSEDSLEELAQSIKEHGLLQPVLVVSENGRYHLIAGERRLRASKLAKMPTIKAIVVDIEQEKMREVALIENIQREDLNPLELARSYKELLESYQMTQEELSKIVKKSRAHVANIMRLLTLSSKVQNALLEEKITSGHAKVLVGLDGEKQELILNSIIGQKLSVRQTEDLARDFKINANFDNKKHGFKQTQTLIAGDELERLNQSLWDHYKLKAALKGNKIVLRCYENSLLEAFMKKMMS
Description: fluorescence polarization. The note with it: no CTP, Kd could not be determined; FP: 20 mM Tris-HCl pH 8.0, 175 mM NaCl, 5 mM MgCl2, 10% glycerol, 1 mM ATP or CTP, 5 nM DNA, room temperature; recombinant protein. (Polarisation of emitted light reports the rotation of a fluorescent probe.)

Data set [4] addresses T2, HpParB (HpSpo0J) (Helicobacter pylori). Kind of data set: EMSA. The note with it: no CTP, minimal binding; EMSA: 20 mM Tris-HCl pH 8.0, 50 mM NaCl, 11 mM imidazole, 5 mM MgCl2, 10% glycerol, +/- 2 mM CTP, 37 C, gel at 4 C; recombinant …; label: none (GelRed stain).

Construct, isoform or probe ends are uncertain for at least one entry. For some of these results: No signal at the amounts used counts as a negative. For some of these results: The comparison behind a weaker result is the experiment's own reference, which may not be listed here. For some of these results: Where a protein sequence is shown, tags need not be part of it.

For the sequence “AGGGTGTTCCACGTGAAACAGGGA (double strand) [parS 24-bp]”, the binding result in data set [1] was “binds more weakly”.

Consider “TCCTATGAATTGCTATGGCAAGCG (double strand) [Cy5/Cy3-labeled nsDNA 24-bp]”, for which the binding result was “no binding” in data set [2] and “binds more weakly” in data set [3]. For “TCCTATGAATTGCTATGGCAAGCG (double strand) [nsDNA 24-bp]”, the binding result in data set [4] was “binds more weakly”.
